Experimental data as given in paper PMC7385433 (International Journal of Antimicrobial Agents, 2020).

Legend:
[1] = test system: Burkholderia pseudomallei K96243; parameters: species or system BALB/c mice; conditions: mouse, in vivo
[2] = mouse, in vivo
[3] = cited from earlier work

coumermycin
toxicity [1]: no toxicity was observed | Cmax [2]: 103 µM | Tmax [2]: 2 h | membrane permeability compared with novobiocin [3]: improved membrane permeability
